Measurements reported in PubChem BioAssay AID1259414 (Drosophila RNAi Screening Center, 2018).
Screen: 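Host factors increasing or decreasing Wolbachia levels in cultured fly cells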 (primary screen). Cell system: Drosophila JW18 cells infected with Wolbachia. Reagent: long dsRNA against Drosophila genes, 0.25 µg dsRNA per well of a 384-well plate. Duration: 5 days. Treatment: cells persistently infected with Wolbachia before knock-down; no added drug. Measurement: 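Imaged fluorescence in situ signal for Wolbachia 23S rRNA per DAPI-counted host cell, given as a robust z-score within each plate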. Direction: Wolbachia per cell robust z: higher = more Wolbachia per host cell than the plate typical. Active means: 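Active if absolute robust z reaches 1.5 in two or more of three replicates, leaving out multi- or no-target dsRNAs, genes unexpressed in JW18 and A1 wells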.
In all, the deposit lists about 24,000 reagents; below is an unselected part of those that have a named target and a result. Over the whole deposit, about 1,210 (5%) were called active. 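Inactive calls also include excluded dsRNAs with several or no targets, genes unexpressed in JW18, and well A1, regardless of score.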 Unmarked entries are inactive. Reagent sequences are not shown.

| predicted target | dsRNA | Wolbachia per cell robust z, rep 1 | Wolbachia per cell robust z, rep 2 | Wolbachia per cell robust z, rep 3 |
| --- | --- | --- | --- | --- |
| S-Lap1 | DRSC10627 | -0.179 | -1.01 | -0.325 |
| Lsp1alpha | DRSC20258 | 1.19 | -0.907 | 0.124 |
| Lsp1alpha | DRSC25329 | -1.04 | -0.0208 | -0.277 |
| CG34308 | DRSC38663 | -1.6 | -1.68 | 1.14 |
| CG34308 | DRSC40664 | 0.477 | 0.0832 | -0.163 |
| CG12391 | DRSC06147 | 0.863 | 0.224 | -0.112 |
| CG32983 | DRSC22367 | 0.82 | -1.56 | 0.986 |
| Cpr76Bb | DRSC11061 | 0.0648 | -1.03 | -2.42 |
| Cpr76Bb | DRSC22870 | -1.62 | -2.09 | -0.465 |
| Cpr76Bb | DRSC25530 | 0.787 | 0.364 | 0.886 |
| BomBc2 | DRSC06502 | -0.477 | -3.6 | 0.751 |
| BomBc2 | DRSC29859 | 0.753 | -1.02 | 0.996 |
| CG4928 | DRSC19342 | -2.28 | 0.213 | -1.33 |
| CG4928 | DRSC29007 | 1.06 | -0.618 | 0.00847 |
| Vha100-5 | DRSC02175 | -1.51 | -3.93 | -0.384 |
| Vha100-5 | DRSC26439 | -0.179 | 1.65 | -0.369 |

Look-ups from the list:
Under “Wolbachia per cell robust z, rep 2”, Lsp1alpha [DRSC20258] has -0.907
Under “Wolbachia per cell robust z, rep 3”, CG32983 [DRSC22367] shows 0.986

The results go on.
| predicted target | dsRNA | Wolbachia per cell robust z, rep 1 | Wolbachia per cell robust z, rep 2 | Wolbachia per cell robust z, rep 3 |
| --- | --- | --- | --- | --- |
| CR18275 | DRSC18151 | -3.85 | 0.544 | -0.0682 |
| CR18275 | DRSC28716 | -5.94 | 0.309 | -0.804 |
| Sf3b2 | DRSC00619 | 2.7 (active) | 2.73 | 5.04 |
| ine | DRSC00822 | 0.914 | -7.59 | 1.53 |
| ine | DRSC28874 | -3.3 | 0.666 | 0.623 |
| FoxK | DRSC24971 | 0.533 | 0.0421 | 1.47 |
| RhoGAP18B | DRSC19763 | 0.756 | 0.718 | 1.28 |
| RhoGAP18B | DRSC20047 | 0.672 | 0.145 | 0.51 |
| RhoGAP18B | DRSC20048 | -0.226 | 0.000275 | -0.282 |
| RhoGAP18B | DRSC20049 | -0.999 | -0.827 | -1.46 |
| RhoGAP18B | DRSC25093 | 0.378 | 1.44 | -0.386 |
| glob1 | DRSC16959 | 0.468 | 0.145 | 0.771 |
